A mixed list of measured activities; the numbers were collected in NIAID ChemDB.

All rows: toxicity to cultured cells; cell line: VERO; read-out: CC50

Blank or dashed fields: not listed here. Lines come from different laboratories, so protocols vary. CCn: concentration that lowers growth or viability of the cells by n%.

SMILES	read by	result
O=C1NC(=NCc2ccccc2)N/C1=C\c1ccc(Cl)cc1		31 µg/mL
Nc1ccn([C@H]2C=C(F)[C@@H](CO)O2)c(=O)n1		>100 µM
Nc1ncnc2c1ncn2[C@H]1C[C@]12C[C@H]2CO		>100 µM
CCCCCCCCCCCCCC[C@H](O)C[C@H](O)C[C@H](O)C[C@H]1CC=CC(=O)O1		5.61 µg/mL
COc1cccc([C@H](c2cc3cc(Br)ccc3nc2OC)[C@@](O)(CCN(C)C)c2cc(C)nc(C)c2)c1OC		>10 µg/mL
Nc1nc(=O)n([C@@H]2O[C@H](CO)[C@@H](CO)[C@@H]2F)cc1F		≥100 µM
C[C@H]([C@@H]1CC[C@H](C)[C@@H](O)O1)[C@H]1CC[C@@]2(C)C3=C(CC[C@]12C)[C@@]1(C)CCC(=O)C(C)(C)C1CC3		>100 µg/mL
CC(=O)c1ccc(-c2cc(C(F)(F)F)nc3c(C(F)(F)F)cccc23)cc1		>128 µM
CCOP(=O)(OCC)C1=NOC(n2ccc(NC(C)=O)nc2=O)C1		>400 µM
Nc1nc2c(ncn2[C@H]2C[C@]23C[C@H]3CO)c(=O)[nH]1		>100 µM
Brc1ccc(Cn2ccc3nc(-c4ccccc4Br)nc-3c2)cc1		>42 µg/mL
Nc1ccn([C@@H]2C=C(F)[C@H](CO)O2)c(=O)n1		>100 µM
Nc1ncnc2c1ncn2[C@@H]1O[C@H](CO)[C@@H](F)[C@@H]1F		>100 µM
C[C@H]([C@@H]1CC[C@H](C)C(=O)O1)[C@H]1CC[C@@]2(C)C3=C(CC[C@]12C)[C@@]1(C)CC[C@@H](O)C(C)(C)C1CC3		>100 µg/mL
C=CCN1CCCC[C@H]1[C@@H](O)c1cc(C(F)(F)F)nc2c(C(F)(F)F)cccc12		>128 µM
N[C@@H](Cc1ccc(-c2ccccc2)cc1)C(=O)O	MTT	>400 µM
COc1ccc(/C=N/NC(=O)CN2c3c(-c4ccccc4)n[nH]c3-c3ccccc3S2(=O)=O)cc1		66 µM
CC/C=C\C/C=C\C/C=C\C/C=C\C/C=C\CCCC(=O)OC(CO[C@H]1O[C@H](CS(=O)(=O)O)[C@@H](O)[C@H](O)[C@H]1O)OC(=O)CCCCCCCCCCCCCCC	neutral red	72 µg/mL
COc1ccc(/C=N/NC(=O)CN2c3c(-c4ccccc4)n[nH]c3-c3ccccc3S2(=O)=O)cc1OC		46.1 µM
N#Cc1ccn2c(-c3ccc(Cl)cc3)c(-c3ccc(Cl)cc3)c(Br)c2c1		8.62 µg/mL
O=c1cc(-c2ccc(-c3ccccc3)cc2)oc2ccccc12		510 µg/mL
C[C@H]([C@@H]1CC[C@H](C)[C@@H](O)O1)[C@H]1CC[C@@]2(C)C3=C(CC[C@]12C)[C@@]1(C)CC[C@@H](O)C(C)(C)C1CC3		>100 µg/mL
O=C(CN1c2c(-c3ccccc3)n[nH]c2-c2ccccc2S1(=O)=O)N/N=C/c1cccc([N+](=O)[O-])c1		53.1 µM
Fc1cccc(F)c1Cn1ccc2nc(-c3c(F)cccc3F)nc-2c1		>100 µg/mL
CC(C)OC(=O)[C@H](C)NP(=O)(OC[C@H]1O[C@@H](n2cnc3c(N)ncnc32)C(F)(F)C1(F)F)Oc1ccccc1		>100 µM
O=C(CN1c2c(-c3ccccc3)n[nH]c2-c2ccccc2S1(=O)=O)N/N=C/c1ccc(Br)cc1		48.5 µM
CC(C)OC(=O)[C@H](C)NP(=O)(OC[C@H]1O[C@@H](n2cnc3c(=O)[nH]c(N)nc32)C(F)(F)C1(F)F)Oc1ccccc1		>100 µM
COc1cccc([C@H](c2cc3cc(Br)ccc3nc2OC)[C@@](O)(CCN(C)C)c2ncc(C)cc2C)c1F		>10 µg/mL
O=C(CN1c2c(-c3ccccc3)n[nH]c2-c2ccccc2S1(=O)=O)N/N=C/c1ccccc1F		15.5 µM
O=C(/C=C/c1ccc(O)c(O)c1)O[C@@H]1CC(O)(C(=O)O)C[C@@H](OC(=O)/C=C/c2ccc(O)c(O)c2)C1O		>400 µM
c1ccc(CCN2CCN([C@@H](Cc3ccccc3)CN3CCCC3CN3CCNC[C@@H]3Cc3ccccc3)C[C@H]2Cc2ccccc2)cc1		0.97 µg/mL
CC(C)(C)C(O)c1c(-c2ccccc2)c(-c2ccccc2)n2ccc(C#N)cc12		5.99 µg/mL
O[C@@H](c1cc(C(F)(F)F)nc2c(C(F)(F)F)cccc12)[C@H]1CCCCN1		38.1 µM
CCOP(=O)(OCC)C1=NOC(n2cc(F)c(=O)[nH]c2=O)C1		>400 µM
Nc1nc(Cl)nc2c1ncn2[C@@H]1O[C@H](CO)[C@@H](F)[C@@H]1F		>100 µM
Nc1nc2c(ncn2[C@@H]2O[C@H](CO)C(F)(F)C2(F)F)c(=O)[nH]1		>100 µM
Nc1ccn([C@@H]2O[C@H](CO)C=C2F)c(=O)n1		>100 µM
COc1cccc(-c2cc(C(F)(F)F)nc3c(C(F)(F)F)cccc23)c1		57 µM
CC(C)OC(=O)[C@H](C)NP(=O)(OC[C@H]1O[C@@H](n2ccc(N)nc2=O)C(F)(F)C1(F)F)Oc1ccccc1		>100 µM
O=C1NC(=Nc2ccc(Cl)cc2Cl)N/C1=C\c1ccc(Cl)cc1Cl		23 µg/mL
FC(F)(F)c1cc(NCc2cccnc2)c2cccc(C(F)(F)F)c2n1		>128 µM
CN(C)c1cccc(-c2nc3ccn(Cc4ccc(Br)cc4)cc-3n2)c1		>100 µg/mL
CCCCCCCCCCCCCCC[C@H](O)C[C@H]1CC=CC(=O)O1		3.07 µg/mL
Cc1ccc(-c2c(C(O)c3ccccc3)c3cc(C#N)ccn3c2-c2ccc(C)cc2)cc1		5.61 µg/mL
c1ccc(CCN2CCN([C@@H](Cc3ccccc3)CN3CCCC3CN3CCNC[C@@H]3Cc3ccccc3)C[C@@H]2Cc2ccccc2)cc1		0.99 µg/mL
c1ccc(-c2nc3ccn(CC4CCCCC4)cc-3n2)cc1		60 µg/mL
CC(C)(C)OC(=O)Nc1ccc(-c2cc(C(F)(F)F)nc3c(C(F)(F)F)cccc23)cc1		15 µM
Nc1ccn([C@@H]2CC[C@H](CO)O2)c(=O)n1		>125 µM
COc1ccc([C@](O)(CCN(C)C)[C@@H](c2cc3cc(Br)ccc3nc2OC)c2cccc(OC)c2F)cn1		>10 µg/mL
O=[N+]([O-])c1nccn1CCCNc1ccnc2cc(Cl)ccc12		146.7 µg/mL
Nc1ncnc2c1ncn2[C@H]1C[C@]12C[C@@H]2CO		89 µM
Nc1nc2c(sc(=O)n2C/C=C\CO)c(=O)[nH]1		>400 µM
Nc1ncnc2c1ncn2[C@H]1C[C@@]12C[C@@H]2CO		>100 µM
CCCCCCCCCCCCCCC[C@H](O)CC[C@@H](O)CCC[C@H]1CC=CC(=O)O1		0.8 µg/mL
Nc1ccn([C@@H]2O[C@H](CO)C(F)(F)C2(F)F)c(=O)n1		>100 µM
Nc1ncnc2c1ncn2[C@H]1C[C@@]12C[C@H]2CO		>100 µM

A second listing of 7 rows from above:

SMILES,read by,result
CN(C)c1cccc(-c2nc3ccn(Cc4ccc(Br)cc4)cc-3n2)c1,,>100 µg/mL
c1ccc(CCN2CCN([C@@H](Cc3ccccc3)CN3CCCC3CN3CCNC[C@@H]3Cc3ccccc3)C[C@@H]2Cc2ccccc2)cc1,,0.99 µg/mL
Nc1ncnc2c1ncn2[C@H]1C[C@@]12C[C@H]2CO,,>100 µM
CC/C=C\C/C=C\C/C=C\C/C=C\C/C=C\CCCC(=O)OC(CO[C@H]1O[C@H](CS(=O)(=O)O)[C@@H](O)[C@H](O)[C@H]1O)OC(=O)CCCCCCCCCCCCCCC,neutral red,72 µg/mL
Nc1nc(Cl)nc2c1ncn2[C@@H]1O[C@H](CO)[C@@H](F)[C@@H]1F,,>100 µM
C=CCN1CCCC[C@H]1[C@@H](O)c1cc(C(F)(F)F)nc2c(C(F)(F)F)cccc12,,>128 µM
O=C(CN1c2c(-c3ccccc3)n[nH]c2-c2ccccc2S1(=O)=O)N/N=C/c1ccc(Br)cc1,,48.5 µM